Measurements: article PMC7796666, “Biochemical characterization and inhibition of thermolabile hemolysin from Vibrio parahaemolyticus by phenolic compounds” (2021)

The chains behind the UniProt entries cited, without tags or fusion partners. Where a name states a change or a piece, a line headed by the entry shows the natural chain unless it says otherwise.
UniProt Q99289: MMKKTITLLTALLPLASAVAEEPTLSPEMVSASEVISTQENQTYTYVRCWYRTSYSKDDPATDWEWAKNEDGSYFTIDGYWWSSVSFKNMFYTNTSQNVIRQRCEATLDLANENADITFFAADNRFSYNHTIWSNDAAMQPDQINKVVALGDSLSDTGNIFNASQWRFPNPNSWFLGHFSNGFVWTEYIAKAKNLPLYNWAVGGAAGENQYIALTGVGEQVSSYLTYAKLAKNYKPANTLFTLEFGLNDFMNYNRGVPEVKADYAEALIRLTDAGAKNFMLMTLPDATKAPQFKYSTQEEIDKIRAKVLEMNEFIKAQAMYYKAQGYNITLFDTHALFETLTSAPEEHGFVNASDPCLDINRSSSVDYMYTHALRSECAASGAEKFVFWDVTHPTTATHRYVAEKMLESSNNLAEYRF

The compounds below were run against VpTLH (Vibrio parahaemolyticus, UniProt Q99289) (assay: p-nitrophenyl laurate hydrolysis, […] nm). Conditions: 200 µM PNPL, 0.0001% egg yolk lecithin, 50 mM Tris-HCl pH 7.5, 37 °C, 6.2 µM enzyme.

Compound	% inhibition at 30 μM [%]
O=C(O)c1cc(O)c(O)c(O)c1	20
O=C(O)c1ccc(O)c(O)c1	20
COc1cc(C(=O)O)ccc1O	20
